Measurements reported in PMC4204995, “Inhibition of Influenza Virus Replication by Targeting Broad Host Cell Pathways” (PLoS ONE, 2014).

The compounds below were run on MDCK cells (assay: XTT cytotoxicity assay in MDCK cells). Conditions: ratio CC50 / EC50.

SMILES	In vitro therapeutic index
CN(C)c1nc(N)c(C(=O)NC(=N)N)nc1Cl [5-(N,N-Dimethyl)amiloride hydrochloride, 5-(N,N-Dimethyl) amiloride hydrochloride]	5.63
CNc1ccc2oc(C[C@H]3O[C@@]4(CC[C@H]3C)O[C@H]([C@H](C)C(=O)c3ccc[nH]3)[C@H](C)C[C@H]4C)nc2c1C(=O)O [A23187 (calcimycin), calcimycin (A23187)]	5.16
CO/C1=C\C(C)=C\[C@@H](C)[C@@H](O)[C@@H](C)C/C(C)=C/C=C/[C@H](OC)[C@@H]([C@@H](C)[C@@H](O)[C@H](C)[C@@]2(O)C[C@@H](O)[C@H](C)[C@@H](C(C)C)O2)OC1=O [Bafilomycin A, bafilomycin A]	4.19
COc1cc(CNC(=O)CCCC/C=C/C(C)C)ccc1O [Capsaicin, capsaicin]	2.67
OC(c1cc(C(F)(F)F)nc2c(C(F)(F)F)cccc12)C1CCCCN1 (stereo not drawn) [Mefloquine, mefloquine hydrochloride]	4.47
CCN(CC)CCCC(C)Nc1c2ccc(Cl)cc2nc2ccc(OC)cc12 (stereo not drawn) [Quinacrine, quinacrine dihydrochloride]	4.93
C=C[C@H]1C[N@@]2CC[C@H]1C[C@@H]2[C@@H](O)c1ccnc2ccc(OC)cc12 [Quinidine, quinidine anhydrous]	10.32
C=C[C@H]1C[N@@]2CC[C@H]1C[C@H]2[C@H](O)c1ccnc2ccc(OC)cc12 [Quinine, Quinine sulfate]	44.90
CCN(CC)CCCCCCCCOC(=O)c1cc(OC)c(OC)c(OC)c1.Cl [TMB-8, TMB-8 hydrochloride]	20.91

Counter-ions that a name gives are not always drawn.
